PubChem BioAssay AID1259414 – Drosophila RNAi Screening Center, 2018

Purpose: 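Host factors increasing or decreasing Wolbachia levels in cultured fly cells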 (primary screen)
Cell system: Drosophila JW18 cells infected with Wolbachia
Reagent: long dsRNA against Drosophila genes, 0.25 µg dsRNA per well of a 384-well plate
Timing: 5 days
Challenge: cells persistently infected with Wolbachia before knock-down; no added drug
Measurement: 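Automated imaging of bacterial rRNA staining divided by host cell count, reported as plate-normalised robust z-score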
Scale: Wolbachia per cell robust z: higher = more Wolbachia per host cell than the plate typical
Hit rule: 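Active if absolute robust z reaches 1.5 in two or more of three replicates, leaving out multi- or no-target dsRNAs, genes unexpressed in JW18 and A1 wells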
The deposit covers about 24,000 reagents; below is a random part of those that have a named target and a result. In the full data, about 1,210 (5%) are marked active. 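Inactive calls also include excluded dsRNAs with several or no targets, genes unexpressed in JW18, and well A1, regardless of score.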

CG5986 [DRSC15931] | Wolbachia per cell robust z, rep 1 = -0.485; Wolbachia per cell robust z, rep 2 = 0.179; Wolbachia per cell robust z, rep 3 = -0.396; call = inactive
CG5986 [DRSC24247] | Wolbachia per cell robust z, rep 1 = -0.432; Wolbachia per cell robust z, rep 2 = -0.66; Wolbachia per cell robust z, rep 3 = 0.193; call = inactive
CG42553 [DRSC08356] | Wolbachia per cell robust z, rep 1 = -2.33; Wolbachia per cell robust z, rep 2 = -0.8; Wolbachia per cell robust z, rep 3 = -2.37; call = active
CG14763 [DRSC06497] | Wolbachia per cell robust z, rep 1 = -0.449; Wolbachia per cell robust z, rep 2 = -0.118; Wolbachia per cell robust z, rep 3 = -0.82; call = inactive
CG14763 [DRSC25479] | Wolbachia per cell robust z, rep 1 = -0.525; Wolbachia per cell robust z, rep 2 = -1.03; Wolbachia per cell robust z, rep 3 = -1.2; call = inactive

Continued, starting with the last 2 of the part before.
CG14763 [DRSC06497] | Wolbachia per cell robust z, rep 1 = -0.449; Wolbachia per cell robust z, rep 2 = -0.118; Wolbachia per cell robust z, rep 3 = -0.82; call = inactive
CG14763 [DRSC25479] | Wolbachia per cell robust z, rep 1 = -0.525; Wolbachia per cell robust z, rep 2 = -1.03; Wolbachia per cell robust z, rep 3 = -1.2; call = inactive
CG34201 [DRSC38628] | Wolbachia per cell robust z, rep 1 = -0.902; Wolbachia per cell robust z, rep 2 = -0.533; Wolbachia per cell robust z, rep 3 = -1.26; call = inactive
Or82a [DRSC11996] | Wolbachia per cell robust z, rep 1 = -1.09; Wolbachia per cell robust z, rep 2 = -0.193; Wolbachia per cell robust z, rep 3 = 0.0343; call = inactive
janB [DRSC16973] | Wolbachia per cell robust z, rep 1 = -0.499; Wolbachia per cell robust z, rep 2 = 0.421; Wolbachia per cell robust z, rep 3 = -0.672; call = inactive
RpL34b [DRSC16475] | Wolbachia per cell robust z, rep 1 = -0.327; Wolbachia per cell robust z, rep 2 = 0.461; Wolbachia per cell robust z, rep 3 = 1.06; call = inactive
CG13950 [DRSC00368] | Wolbachia per cell robust z, rep 1 = -1.12; Wolbachia per cell robust z, rep 2 = -4.09; Wolbachia per cell robust z, rep 3 = 0.125; call = inactive
CG13950 [DRSC27405] | Wolbachia per cell robust z, rep 1 = -3.99; Wolbachia per cell robust z, rep 2 = -1.74; Wolbachia per cell robust z, rep 3 = -0.333; call = inactive
Sas-4 [DRSC12505] | Wolbachia per cell robust z, rep 1 = 0.516; Wolbachia per cell robust z, rep 2 = -0.399; Wolbachia per cell robust z, rep 3 = -2.43; call = inactive
